Assay results reported in article PMC7051184, “C9orf72 arginine-rich dipeptide repeat proteins disrupt karyopherin-mediated nuclear import” (eLife, 2020).

Amino acid sequences for entries named in this document (tags omitted).
UniProt Q14974, whole entry: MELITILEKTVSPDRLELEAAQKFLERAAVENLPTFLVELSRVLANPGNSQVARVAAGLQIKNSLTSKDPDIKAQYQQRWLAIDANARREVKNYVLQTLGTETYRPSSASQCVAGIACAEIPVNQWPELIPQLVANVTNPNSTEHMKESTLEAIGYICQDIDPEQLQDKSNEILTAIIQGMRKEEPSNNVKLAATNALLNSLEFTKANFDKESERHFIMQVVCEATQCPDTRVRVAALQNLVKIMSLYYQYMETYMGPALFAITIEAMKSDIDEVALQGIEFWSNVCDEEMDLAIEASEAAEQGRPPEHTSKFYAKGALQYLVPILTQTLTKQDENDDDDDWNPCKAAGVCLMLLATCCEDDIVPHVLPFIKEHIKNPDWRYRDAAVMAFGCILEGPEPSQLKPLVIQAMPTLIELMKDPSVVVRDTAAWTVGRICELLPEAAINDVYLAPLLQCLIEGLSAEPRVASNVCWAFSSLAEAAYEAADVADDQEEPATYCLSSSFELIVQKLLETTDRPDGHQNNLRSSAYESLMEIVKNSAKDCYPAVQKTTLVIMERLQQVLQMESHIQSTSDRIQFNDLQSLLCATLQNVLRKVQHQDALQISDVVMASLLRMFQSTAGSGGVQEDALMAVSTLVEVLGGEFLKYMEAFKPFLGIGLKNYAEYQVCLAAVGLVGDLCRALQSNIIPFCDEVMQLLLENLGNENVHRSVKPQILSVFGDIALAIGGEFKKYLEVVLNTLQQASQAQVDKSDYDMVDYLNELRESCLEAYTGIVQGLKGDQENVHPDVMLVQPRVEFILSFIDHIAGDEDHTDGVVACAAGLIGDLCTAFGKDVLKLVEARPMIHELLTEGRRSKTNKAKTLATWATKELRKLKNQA

Target: T1, importin β (KPNB1) (Homo sapiens, UniProt Q14974)
T1 construct: pET30a 6His-S-Importin β(1-876); 6His (N); S-tag (N); made in house; host or cells: E. coli BL21(DE3)
Experiment: Rango FRET detection of importin β-Rango dissociation
Assay type: binding
Settings: DPR 10-mers added to importin β-bound Rango
Protocol: Full-length human importin β was expressed from pET30a-WT importin β (pKW485; [Chi et al., 1997]) at the Protein Expression Laboratory (PEL, National Cancer Institute, Frederick, MD). The transformed BL21DE3 cells were grown at 37°C in an 80L Bioflow 500 bioreactor (New Brunswick Scientific, Edison, NJ) until OD600nm = 0.6, cooled to 22°C and the expression was induced with 0.3 mM IPTG. After 12 hr induction, cells were harvested with the CARR continuous flow centrifuge and lysed in PBS with 10 mM imidazole and 5 mM TCEP with a 110EH Microfluidizer (Microfluidics, Westwood, MA) using 2 passes at 10,000 PSI under chilled conditions. […] Measurement of Rango fluorescence emission in a spectrometer (see below) was used to verify the FRET-off state of the Rango/importin β mixture before freezing. […]
FRET assays for DPR-induced dissociation of the importin β-Rango complex were performed using a mix of 5 µM Rango-2/α1 (pK188) and 12.5 µM importin β (pKW485) prepared as described above. […] Peak emissions were recorded at 480 nm (donor) and 535 nm (acceptor) in all samples, and background emission subtracted at the same wavelengths in the blank. The FRET signal was calculated as the ratio of background-subtracted acceptor/donor emissions. The signal detected in the untreated sample (20 nM Rango and 50 nM importin β-only, the lowest FRET), was then subtracted from the resulting values. […]

N=C(N)NCCC[C@H](NC(=O)CNC(=O)[C@H](CCCNC(=N)N)NC(=O)CNC(=O)[C@H](CCCNC(=N)N)NC(=O)CNC(=O)[C@H](CCCNC(=N)N)NC(=O)CNC(=O)[C@H](CCCNC(=N)N)NC(=O)CNC(=O)[C@H](CCCNC(=N)N)NC(=O)CNC(=O)[C@H](CCCNC(=N)N)NC(=O)CNC(=O)[C@H](CCCNC(=N)N)NC(=O)CNC(=O)[C@H](CCCNC(=N)N)NC(=O)CNC(=O)[C@H](CCCNC(=N)N)NC(=O)CN)C(=O)O [GR10]
Effect on Rango FRET: dose-dependent increase in FRET
